Reference: PubChem BioAssay AID1259414 (Drosophila RNAi Screening Center, 2018)
The deposit covers about 24,000 reagents; shown is an unselected part of those with a known target gene and a result. In the full data, about 1,210 (5%) got an active call. 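Inactive calls also include excluded dsRNAs with several or no targets, genes unexpressed in JW18, and well A1, regardless of score.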

- Assay: 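Genome-wide screen for host control of endosymbiont load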 (primary screen)
- Cell system: Drosophila JW18 cells infected with Wolbachia
- Reagents: long dsRNA against Drosophila genes, 0.25 µg dsRNA per well of a 384-well plate
- Time to read-out: 5 days
- Treatment: cells persistently infected with Wolbachia before knock-down; no added drug
- Read-out: 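Imaged fluorescence in situ signal for Wolbachia 23S rRNA per DAPI-counted host cell, given as a robust z-score within each plate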
- Direction: Wolbachia per cell robust z: higher = more Wolbachia per host cell than the plate typical
- Rule for the call: 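Hit when robust z is 1.5 or more, or -1.5 or less, in at least two of three replicates; excludes dsRNAs with several or no targets, genes not expressed in JW18 and well A1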

{"predicted target": "CG13760", "PubChem SID": "SID104198409", "Wolbachia per cell robust z, rep 1": 0.704, "Wolbachia per cell robust z, rep 2": 0.147, "Wolbachia per cell robust z, rep 3": 0.226, "call": "inactive"}
{"predicted target": "Wnk", "PubChem SID": "SID104202713", "Wolbachia per cell robust z, rep 1": -0.898, "Wolbachia per cell robust z, rep 2": -0.943, "Wolbachia per cell robust z, rep 3": 0.22, "call": "inactive"}
{"predicted target": "CG30428", "PubChem SID": "SID104183833", "Wolbachia per cell robust z, rep 1": -0.713, "Wolbachia per cell robust z, rep 2": 0.902, "Wolbachia per cell robust z, rep 3": -0.348, "call": "inactive"}
{"predicted target": "CG30428", "PubChem SID": "SID104206772", "Wolbachia per cell robust z, rep 1": 1.34, "Wolbachia per cell robust z, rep 2": 0.999, "Wolbachia per cell robust z, rep 3": 0.205, "call": "inactive"}
{"predicted target": "Mtr4", "PubChem SID": "SID104183352", "Wolbachia per cell robust z, rep 1": 0.977, "Wolbachia per cell robust z, rep 2": -0.181, "Wolbachia per cell robust z, rep 3": 0.524, "call": "inactive"}
{"predicted target": "CG7724", "PubChem SID": "SID104190697", "Wolbachia per cell robust z, rep 1": -1.62, "Wolbachia per cell robust z, rep 2": -1.89, "Wolbachia per cell robust z, rep 3": -1.25, "call": "inactive"}
{"predicted target": "CG7006", "PubChem SID": "SID104195961", "Wolbachia per cell robust z, rep 1": 0.522, "Wolbachia per cell robust z, rep 2": -0.555, "Wolbachia per cell robust z, rep 3": -2.59, "call": "inactive"}
{"predicted target": "elfless", "PubChem SID": "SID104182243", "Wolbachia per cell robust z, rep 1": 0.912, "Wolbachia per cell robust z, rep 2": 1.18, "Wolbachia per cell robust z, rep 3": 1.6, "call": "inactive"}
{"predicted target": "CG14073", "PubChem SID": "SID104189870", "Wolbachia per cell robust z, rep 1": -0.318, "Wolbachia per cell robust z, rep 2": -0.155, "Wolbachia per cell robust z, rep 3": -0.125, "call": "inactive"}
{"predicted target": "CG14073", "PubChem SID": "SID104205545", "Wolbachia per cell robust z, rep 1": 0.81, "Wolbachia per cell robust z, rep 2": 0.83, "Wolbachia per cell robust z, rep 3": -0.622, "call": "inactive"}
{"predicted target": "lncRNA:CR32160", "PubChem SID": "SID104202263", "Wolbachia per cell robust z, rep 1": -1.27, "Wolbachia per cell robust z, rep 2": 0.487, "Wolbachia per cell robust z, rep 3": -0.15, "call": "inactive"}
{"predicted target": "CG5835", "PubChem SID": "SID104195678", "Wolbachia per cell robust z, rep 1": -0.719, "Wolbachia per cell robust z, rep 2": 0.494, "Wolbachia per cell robust z, rep 3": 0.535, "call": "inactive"}
{"predicted target": "CG5835", "PubChem SID": "SID104205959", "Wolbachia per cell robust z, rep 1": -0.869, "Wolbachia per cell robust z, rep 2": -1.22, "Wolbachia per cell robust z, rep 3": 0.155, "call": "inactive"}
{"predicted target": "CG5835", "PubChem SID": "SID104218839", "Wolbachia per cell robust z, rep 1": 1.02, "Wolbachia per cell robust z, rep 2": -0.0281, "Wolbachia per cell robust z, rep 3": 0.359, "call": "inactive"}
{"predicted target": "CG14401", "PubChem SID": "SID104182177", "Wolbachia per cell robust z, rep 1": 1.36, "Wolbachia per cell robust z, rep 2": 1.25, "Wolbachia per cell robust z, rep 3": -0.021, "call": "inactive"}
{"predicted target": "CG14401", "PubChem SID": "SID104201386", "Wolbachia per cell robust z, rep 1": -0.532, "Wolbachia per cell robust z, rep 2": -0.314, "Wolbachia per cell robust z, rep 3": -1.16, "call": "inactive"}
{"predicted target": "CG14401", "PubChem SID": "SID104203030", "Wolbachia per cell robust z, rep 1": 1.07, "Wolbachia per cell robust z, rep 2": 1.3, "Wolbachia per cell robust z, rep 3": 0.616, "call": "inactive"}
{"predicted target": "CG3610", "PubChem SID": "SID104195294", "Wolbachia per cell robust z, rep 1": 1.64, "Wolbachia per cell robust z, rep 2": 1.64, "Wolbachia per cell robust z, rep 3": -0.598, "call": "inactive"}
{"predicted target": "CG3610", "PubChem SID": "SID104205883", "Wolbachia per cell robust z, rep 1": 0.764, "Wolbachia per cell robust z, rep 2": -0.849, "Wolbachia per cell robust z, rep 3": 0.701, "call": "inactive"}
{"predicted target": "Lrt", "PubChem SID": "SID104185837", "Wolbachia per cell robust z, rep 1": -0.604, "Wolbachia per cell robust z, rep 2": -3.92, "Wolbachia per cell robust z, rep 3": 0.2, "call": "inactive"}
{"predicted target": "Lrt", "PubChem SID": "SID104205630", "Wolbachia per cell robust z, rep 1": 0.633, "Wolbachia per cell robust z, rep 2": 1.02, "Wolbachia per cell robust z, rep 3": 1.47, "call": "inactive"}
{"predicted target": "RluA-2", "PubChem SID": "SID104182731", "Wolbachia per cell robust z, rep 1": 0.449, "Wolbachia per cell robust z, rep 2": 0.232, "Wolbachia per cell robust z, rep 3": 0.996, "call": "inactive"}
{"predicted target": "smo", "PubChem SID": "SID104180629", "Wolbachia per cell robust z, rep 1": -2.26, "Wolbachia per cell robust z, rep 2": 0.046, "Wolbachia per cell robust z, rep 3": 0.516, "call": "inactive"}
{"predicted target": "smo", "PubChem SID": "SID104207036", "Wolbachia per cell robust z, rep 1": -1.22, "Wolbachia per cell robust z, rep 2": -1.59, "Wolbachia per cell robust z, rep 3": -0.784, "call": "inactive"}

An excerpt taken from the entries so far, for reference:
{"predicted target": "RluA-2", "PubChem SID": "SID104182731", "Wolbachia per cell robust z, rep 1": 0.449, "Wolbachia per cell robust z, rep 2": 0.232, "Wolbachia per cell robust z, rep 3": 0.996, "call": "inactive"}
{"predicted target": "smo", "PubChem SID": "SID104180629", "Wolbachia per cell robust z, rep 1": -2.26, "Wolbachia per cell robust z, rep 2": 0.046, "Wolbachia per cell robust z, rep 3": 0.516, "call": "inactive"}
{"predicted target": "smo", "PubChem SID": "SID104207036", "Wolbachia per cell robust z, rep 1": -1.22, "Wolbachia per cell robust z, rep 2": -1.59, "Wolbachia per cell robust z, rep 3": -0.784, "call": "inactive"}
